A mixed list of measured activities; the numbers were collected in NIAID ChemDB.

Common to all: tests on isolated targets; species: Hepatitis C virus; target: NS5B polymerase

Two numbers with a dash give a range or band. ICn: concentration for n% inhibition. Lines come from different laboratories, so protocols vary. Blank or dashed fields: not listed here. Inhibition is in % at the dose shown (toxicity tests: loss of growth or viability).

structure | strain | measure | tested at | result
CCCC(NC(=O)c1ccc2c(c1)nc(-c1ccoc1)n2C1CCCCC1)C(=O)Nc1ccc(/C=C/C(=O)O)cc1 | - | IC50 | - | <0.5 µM
CC(C)N(C(=O)c1ccc2cc(-c3nc4cc(C(=O)O)ccc4n3C3CCCCC3)ccc2n1)c1ccc(Cl)cc1 | - | inhibition | 100 µM | 102%
CCCCc1ccc(C(=O)O)c(N(C)c2ccc(N3CCNCC3)cc2)n1 | - | inhibition | 0.1 µg/mL | 30–55%
O=C(NC(C(=O)O)C(=O)O)c1ccc2c(c1)nc(-c1ccccn1)n2C1CCCCC1 | - | IC50 | - | 1–5 µM
CCc1ccc(C(=O)OCc2ccccc2)c(Nc2ccc(N3CCOCC3)cc2)n1 | - | inhibition | 0.1 µg/mL | 30–55%
O=C(NC(CC1CCCCC1)C(=O)O)c1ccc2c(c1)nc(-c1ccc3nc(-c4ccccc4)cnc3c1)n2C1CCCCC1 | - | inhibition | 33 µM | 97.4%
CCSc1nc(Nc2ccc(N(CC)CC)cc2)cc(N2CCN(C(=O)c3ccncc3)CC2)n1 | - | inhibition | 0.1 µg/mL | 30–55%
O=C(N[C@H](C(=O)O)c1c[nH]c2ccc(O)cc12)c1ccc2c(c1)nc(-c1cccc(=O)[nH]1)n2C1CCCCC1 | - | IC50 | - | 1–5 µM
O=C(NC1(C(=O)Nc2ccc(N3CCOCC3)nc2)CCCC1)c1ccc2c(c1)nc(-c1ccoc1)n2C1CCCCC1 | - | IC50 | - | 0.5–5 µM
CCC[C@]1(CC(=O)O)OCCc2c1[nH]c1c(C)ccc(C#N)c21 | 320-10-3 genotype 1B | IC50 | - | 0.5 µM
O=C(O)c1ccc2c(c1)nc(-c1cc3ccc(-c4ccccc4-c4ccccc4)nc3cc1F)n2C1CCCCC1 | - | inhibition | 33 µM | 98.73%
COC(=O)[C@H](Cc1c[nH]c2ccc(OCC(=O)O)cc12)NC(=O)c1ccc2c(c1)nc(-c1ccccn1)n2C1CCCCC1 | - | IC50 | - | <1 µM
CCc1nc(N2CCN(C(=O)c3ccccc3)CC2)cc(N(C)c2ccc(N(C)Cc3ccccc3)cc2)n1 | - | inhibition | 0.1 µg/mL | 30–55%
COc1cccc(-c2nc3cc(C(=O)N[C@H](C(=O)O)c4c[nH]c5ccc(O)cc45)ccc3n2C2CCCCC2)c1O | - | IC50 | - | 1–5 µM
CCCCSc1nc(Nc2ccc(N(CC)CC)cc2)cc(N2CCN(C(=O)c3ncccn3)CC2)n1 | - | inhibition | 0.1 µg/mL | 30–55%
O=C(N[C@H](C(=O)O)c1c[nH]c2ccc(O)cc12)c1ccc2c(c1)nc(-c1cn[nH]c1)n2C1CCCCC1 | - | IC50 | - | <1 µM
Cn1cccc1-c1nc2cc(C(=O)NC3(C(=O)Nc4ccc(/C=C/C(=O)O)cc4)CCCC3)ccc2n1C1C[C@H]2CC[C@@H]1C2 | - | IC50 | - | 0.5–5 µM
CC(C)Nc1nc(C[C@H](Cc2ccc(OCC(=O)O)cc2)NC(=O)c2ccc3c(c2)nc(-c2ccoc2)n3C2CCCCC2)cs1 | - | IC50 | - | 1–5 µM
O=C(O)c1ccc2c(c1)nc(-c1ccc3nc(-c4ccc(O)cc4O)ccc3c1)n2C1CCCCC1 | - | inhibition | 100 µM | 101%
CCSc1nc(N2CCN(C(=O)c3ccccc3)CC2)cc(N(C)c2ccc(N(CC)CC)cc2)n1 | - | inhibition | 0.1 µg/mL | 30–55%
COc1ccc(-c2ccc(Cl)cc2)c(-c2ccc3cc(-c4nc5cc(C(=O)O)ccc5n4CC(C)C)ccc3n2)c1 | - | inhibition | 33 µM | 98.17%
C[C@@H](NC(=O)c1ccc2c(c1)nc(-c1ccoc1)n2C1CCCCC1)C(=O)Nc1ccc(-c2csc(N)n2)cc1 | - | IC50 | - | 0.5–5 µM
Cc1cc(-c2nc3cc(C(=O)N[C@H](C(=O)O)c4c[nH]c5ccc(O)cc45)ccc3n2C2CCCCC2)on1 | - | IC50 | - | <1 µM
O=C(O)/C=C/c1ccc(NC(=O)C2(NC(=O)c3ccc4c(c3)nc(-c3ccoc3)n4C3C[C@H]4CC[C@@H]3C4)CCCC2)cc1 | - | IC50 | - | <0.5 µM
CCSc1nc(N2CCN(C(=O)c3ccccc3)CC2)cc(N(C)c2ccc(N(C)Cc3ccccc3)cc2)n1 | - | inhibition | 0.1 µg/mL | 30–55%
O=C(O)c1ccc(-c2nc3cc(C(=O)N[C@H](C(=O)O)c4c[nH]c5ccc(O)cc45)ccc3n2C2CCCCC2)cc1 | - | IC50 | - | 1–5 µM
O=C(O)/C=C/c1ccc(NC(=O)C2(NC(=O)c3ccc4c(c3)nc(-c3ccc[nH]3)n4C3CCCCC3)CCCC2)cc1 | - | IC50 | - | <0.5 µM
C[C@@H]1CCC[C@H](C)C1n1c(-c2ccoc2)nc2cc(C(=O)N[C@@H](Cc3c[nH]c4ccc(O)cc34)C(=O)O)ccc21 | - | IC50 | - | <1 µM
O=C(O)/C=C/c1ccc(NC(=O)C2(NC(=O)c3ccc4c(c3)nc(-c3ccco3)n4C3CCCC3)CCCC2)cc1 | - | IC50 | - | 0.5–5 µM
CCOC(=O)[C@H](Cc1ccc(-c2nn[nH]n2)cc1)NC(=O)c1ccc2c(c1)nc(-c1ccoc1)n2C1CCCCC1 | - | IC50 | - | <1 µM
Cn1cccc1-c1nc2cc(C(=O)NC3(C(=O)Nc4ccc(/C=C/C(=O)O)cc4)CCCC3)ccc2n1C1CCCC1 | - | IC50 | - | 0.5–5 µM

The last 3 rows once more:

{"structure": "O=C(O)/C=C/c1ccc(NC(=O)C2(NC(=O)c3ccc4c(c3)nc(-c3ccco3)n4C3CCCC3)CCCC2)cc1", "measure": "IC50", "result": "0.5–5 µM"}
{"structure": "CCOC(=O)[C@H](Cc1ccc(-c2nn[nH]n2)cc1)NC(=O)c1ccc2c(c1)nc(-c1ccoc1)n2C1CCCCC1", "measure": "IC50", "result": "<1 µM"}
{"structure": "Cn1cccc1-c1nc2cc(C(=O)NC3(C(=O)Nc4ccc(/C=C/C(=O)O)cc4)CCCC3)ccc2n1C1CCCC1", "measure": "IC50", "result": "0.5–5 µM"}